Target: human macrodomain TARG1 (human, UniProt Q9Y530 1-152)
Test: AlphaScreen or HTRF
Conditions: both partners purified

By UniProt entry, the sequences of proteins in these tests, tags left out. Where a name states a change or a piece, a line headed by the entry shows the natural chain unless it says otherwise.
UniProt Q9Y530: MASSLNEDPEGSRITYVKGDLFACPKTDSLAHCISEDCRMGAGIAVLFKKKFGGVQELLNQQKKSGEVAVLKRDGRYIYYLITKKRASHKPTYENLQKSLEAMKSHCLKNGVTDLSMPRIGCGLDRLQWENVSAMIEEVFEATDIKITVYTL

ARTKQTARKS [ADPr-conjugated biotin peptide ARTK(Bio)QTARK(Aoa-RADP)S]: binds.

— paper doi:10.1101/2022.06.27.497816 (bioRxiv, 2022)
